A mixed list of measured activities; the numbers were collected in NIAID ChemDB.

All rows: tests in culture; agent: Mycobacterium tuberculosis

MIC bound comes from a single tested concentration. Inhibition is in % at the dose shown (toxicity tests: loss of growth or viability). Blank or dashed fields: not listed here. ECn is the concentration giving n% inhibition of infection, replication or growth. Rows are shuffled and stem from different studies.

{"smiles": "CCOC(=O)Nc1cc2c(c(N)n1)N=C(c1ccc3c(c1)OCO3)C(C)N2", "cell line": "VERO", "read-out": "EC50", "strain or isolate": "H37Rv", "value": "<12.5 µg/mL"}
{"smiles": "CCCCCNCCNCCc1ccccc1F", "read-out": "MIC", "value": "25 µM"}
{"smiles": "NC(=O)c1ccc[n+](Cc2ccc(Cl)cc2Cl)c1.[Cl-]", "read-out": "MIC bound", "strain or isolate": "H37Rv", "method": "BACTEC", "value": ">12.5 µg/mL"}
{"smiles": "CC1(C)[C@@H]2CC[C@@]1(C)[C@@H](NCCNC1Cc3ccccc3C1)C2", "read-out": "MIC", "value": "50 µM"}
{"smiles": "CN1CCOP(=O)(c2ccccc2)N1", "read-out": "MIC bound", "strain or isolate": "H37Rv", "method": "BACTEC", "value": ">128 µg/mL"}
{"smiles": "CCOC(=O)Nc1cc(NC(c2ccccc2)c2ccccc2)c2ncc(-c3ccc(Cl)cc3)nc2n1", "read-out": "EC50", "strain or isolate": "H37Rv", "value": ">12.5 µg/mL"}
{"smiles": "O=C1C=CC(=O)C=C1", "read-out": "MIC", "strain or isolate": "H37Rv", "value": "100 µg/mL"}
{"smiles": "Cc1cc(N(C)C)ccc1N=Nc1ccc2ncccc2c1", "read-out": "MIC bound", "strain or isolate": "H37Rv", "method": "resazurin", "value": ">6.25 µg/mL"}
{"smiles": "C=C(C)C1CC=C(C)/C(=N\\O)C1", "read-out": "MIC", "strain or isolate": "H37Rv", "value": ">100 µg/mL"}
{"smiles": "O=C(CNC1=NCCN1)Nc1ccc(NC(=O)c2ccc(C(=O)Nc3ccc(NC(=O)CNC4=NCCN4)cc3)cc2)cc1", "tested at": "12.5 µg/mL", "read-out": "inhibition", "strain or isolate": "H37Rv", "method": "BACTEC", "value": "96%"}
{"smiles": "c1ccc(C(CCNCCN2CCCCC2)c2ccccc2)cc1", "read-out": "MIC", "value": "50 µM"}
{"smiles": "CCOC(=O)Nc1cc(NCc2ccc(S(N)(=O)=O)cc2)c2nccnc2n1", "tested at": "12.5 µg/mL", "read-out": "inhibition", "strain or isolate": "H37Rv", "value": "0%"}
{"smiles": "COc1cccc2c1C(=O)c1c(O)c3c(c(O)c1C2=O)C[C@](O)(C(=O)CN1CCN(C)CC1)C[C@H]3OC1CC(N)C(O)C(C)O1.Cl", "read-out": "MIC bound", "strain or isolate": "H37Rv", "method": "BACTEC", "value": ">12.5 µg/mL"}
{"smiles": "CC(C)(CO)NCCNCCN1CCOCC1", "read-out": "MIC", "value": "50 µM"}
{"smiles": "Nc1cccc(S(N)(=O)=O)c1", "read-out": "MIC", "strain or isolate": "H37Rv", "value": ">100 µg/mL"}
{"smiles": "CC1(C)[C@@H]2CC[C@H](CNCCNC[C@@H]3CC[C@H]4C[C@@H]3C4(C)C)[C@H]1C2", "read-out": "MIC", "value": "6.25 µM"}
{"smiles": "O=S(=O)(Nc1ccccc1)c1ccc2nc[nH]c2c1", "read-out": "MIC", "strain or isolate": "H37Rv", "value": ">100 µg/mL"}
{"smiles": "COC(=O)CCc1nc(C(=O)OC)c(CCC(=O)OC)nc1C(=O)OC", "read-out": "MIC", "strain or isolate": "H37Rv", "method": "BACTEC", "value": "≥12.5 µg/mL"}
{"smiles": "CCCNCCNC[C@H](C)O", "read-out": "MIC", "value": "50 µM"}
{"smiles": "CC(=O)NNc1nc(C)c(C(=O)NNC(=O)C(=O)Nc2c(C)cccc2C)s1", "read-out": "MIC bound", "strain or isolate": "H37Rv", "method": "BACTEC", "value": ">12.5 µg/mL"}
{"smiles": "C1=C(CCNCCNCC23CC4CC(CC(C4)C2)C3)CCCC1", "read-out": "MIC", "value": "25 µM"}
{"smiles": "Nc1cccc(C(=O)O)c1Cl", "read-out": "MIC", "strain or isolate": "H37Rv", "value": ">100 µg/mL"}
{"smiles": "CCOC(=O)Nc1cc2c([nH]c(=S)n2/N=C/c2ccccc2)c(N)n1", "tested at": "12.5 µg/mL", "read-out": "inhibition", "strain or isolate": "H37Rv", "value": "29%"}
{"smiles": "S=P1(c2ccccc2)Nc2ccccc2N1C1CCCCC1", "read-out": "MIC bound", "strain or isolate": "H37Rv", "method": "resazurin", "value": ">6.25 µg/mL"}
{"smiles": "Brc1ccc(OCc2ccccc2)cc1", "read-out": "MIC", "strain or isolate": "H37Rv", "value": ">100 µg/mL"}
{"smiles": "COC(=O)C1CP2(C)(C)N(C)C(=O)N2C1(c1ccccc1)c1ccccc1", "tested at": "12.5 µg/mL", "read-out": "inhibition", "strain or isolate": "H37Rv", "method": "BACTEC", "value": "3%"}
{"smiles": "C[C@H](NCCNCCC(c1ccccc1)c1ccccc1)C1CCCCC1", "read-out": "MIC", "value": "6.25 µM"}
{"smiles": "O=C(O)c1ccc([As](=O)(O)O)cc1", "read-out": "MIC", "strain or isolate": "H37Rv", "value": ">100 µg/mL"}
{"smiles": "Cc1cccc(N2CC3CC4C=CC3(C2)O4)c1", "tested at": "12.5 µg/mL", "read-out": "inhibition", "strain or isolate": "H37Rv", "method": "BACTEC", "value": "10%"}
{"smiles": "O=C(O)/C=C/c1ccc([N+](=O)[O-])o1", "read-out": "MIC", "strain or isolate": "H37Rv", "value": ">100 µg/mL"}
{"smiles": "c1ccc(C(CNCCNCCCN2CCOCC2)c2ccccc2)cc1", "read-out": "MIC", "value": "25 µM"}
{"smiles": "CC(C)c1ccc(/C=C/C(=O)O)cc1", "read-out": "MIC", "strain or isolate": "H37Rv", "value": "50 µg/mL"}
{"smiles": "COc1ccc2c(c1)[n+]([O-])c(C(N)=O)c(N)[n+]2[O-]", "cell line": "VERO", "read-out": "MIC", "strain or isolate": "H37Rv", "value": "3.1 µg/mL"}
{"smiles": "NC[C@H]1O[C@H](O[C@H]2[C@H](O)[C@@H](O[C@H]3O[C@H](CO)[C@@H](O)[C@H](N)[C@H]3O)[C@H](N)C[C@@H]2N)[C@H](O)[C@@H](O)[C@@H]1O", "read-out": "MIC", "strain or isolate": "TN718 (AY)", "value": ">256 µg/mL"}
{"smiles": "CO[C@@H]1[C@@H](OC(=O)c2ccc(C)[nH]2)[C@@H](O)C(Oc2ccc3c(O)c(NC(=O)c4c[nH]c(C(=O)Nc5c(O)c6ccc(OC7OC(C)(C)[C@H](OC)[C@@H](OC(=O)c8ccc(C)[nH]8)[C@H]7O)c(C)c6oc5=O)c4C)c(=O)oc3c2C)OC1(C)C", "read-out": "MIC", "strain or isolate": "CS-R", "value": "3.2 µg/mL"}
{"smiles": "CC(=O)Nc1ccc(C)cc1", "read-out": "MIC", "strain or isolate": "H37Rv", "value": ">100 µg/mL"}
{"smiles": "CCCCCN(CCCCC)CCCNc1ccc(C)c2sc3ccccc3c(=O)c12", "cell line": "VERO", "read-out": "MIC", "strain or isolate": "H37Rv", "method": "BACTEC", "value": "1.6 µg/mL"}
{"smiles": "CCN(CC)Cc1ccc(Cl)cc1.Cl", "read-out": "MIC", "strain or isolate": "H37Rv", "value": ">100 µg/mL"}
{"smiles": "CC1(C)CS(=O)(=O)N=C2CCCC1C2", "read-out": "MIC bound", "strain or isolate": "H37Rv", "method": "BACTEC", "value": ">12.5 µg/mL"}
{"smiles": "c1ccc2c(c1)oc1ccccc12", "read-out": "MIC", "strain or isolate": "H37Rv", "value": ">100 µg/mL"}
{"smiles": "CC(=O)NC1C(=O)N(c2ccccc2)N=C1C", "read-out": "MIC", "strain or isolate": "H37Rv", "method": "BACTEC", "value": "≥12.8 µg/mL"}
{"smiles": "O=C1CCCC1", "read-out": "MIC", "strain or isolate": "H37Rv", "value": ">100 µg/mL"}
{"smiles": "C=C[C@H]1CN2CC[C@H]1C[C@H]2[C@H](O)c1ccnc2ccccc12", "read-out": "MIC", "strain or isolate": "H37Rv", "method": "BACTEC", "value": "≥128 µg/mL"}
{"smiles": "CC(CNCCNC(C)c1cccc2ccccc12)c1ccccc1", "read-out": "MIC", "value": "25 µM"}
{"smiles": "CCOC(=O)Nc1cc(NC/C(=N\\O)c2ccc(Cl)cc2)c([N+](=O)[O-])c(N)n1", "read-out": "EC50", "strain or isolate": "H37Rv", "value": ">12.5 µg/mL"}
{"smiles": "c1ccc(CCCCNCCNCCCc2ccccc2)cc1", "read-out": "MIC", "value": "25 µM"}
{"smiles": "CO[C@H]1/C=C/O[C@@]2(C)Oc3c(C)c(O)c4c(O)c(c5c(c4c3C2=O)NC2(CCN(CC(C)C)CC2)N=5)=NC(=O)/C(C)=C\\C=C\\[C@H](C)[C@H](O)[C@@H](C)[C@@H](O)[C@@H](C)[C@H](OC(C)=O)[C@@H]1C", "read-out": "MIC", "strain or isolate": "2749 (rifampin-sensitive)", "value": "0.05 µg/mL"}
{"smiles": "Cc1nc2ccccc2cc1Cl", "read-out": "MIC", "strain or isolate": "H37Rv", "value": "50 µg/mL"}
{"smiles": "Nc1nc(-c2ccco2)cc(-c2ccc(CO)o2)n1", "read-out": "MIC bound", "strain or isolate": "H37Rv", "method": "BACTEC", "value": ">12.5 µg/mL"}
{"smiles": "CCN(CC)Cc1c[nH]c2cc(Cl)ccc2c1=O", "read-out": "MIC", "strain or isolate": "H37Rv", "value": ">100 µg/mL"}
{"smiles": "CCN(CCNc1ccc(CO)c2sc3ccccc3c(=O)c12)CC(C)(C)O", "tested at": "12.5 µg/mL", "read-out": "inhibition", "strain or isolate": "H37Rv", "method": "BACTEC", "value": "69%"}
{"smiles": "O=C1c2ccccc2C(=O)N1CCSSCCN1C(=O)c2ccccc2C1=O", "read-out": "MIC", "strain or isolate": "H37Rv", "value": ">100 µg/mL"}
{"smiles": "COCCn1c2nc(=O)n(-c3ccccc3)c(=O)c-2nc2ccccc21", "read-out": "MIC bound", "strain or isolate": "H37Rv", "method": "BACTEC", "value": ">12.5 µg/mL"}
{"smiles": "S=c1[nH][nH]c(=S)[nH]1", "read-out": "MIC", "strain or isolate": "H37Rv", "value": ">100 µg/mL"}
{"smiles": "COc1cccc2c1cc([N+](=O)[O-])c1c(C(=O)O)cc3c(c12)OCO3", "read-out": "MIC", "strain or isolate": "H37Rv", "method": "BACTEC", "value": "≥128 µg/mL"}
{"smiles": "O=C(O)c1ccccc1Oc1ccc([N+](=O)[O-])cc1", "read-out": "MIC", "strain or isolate": "H37Rv", "value": "100 µg/mL"}
{"smiles": "CCC(C)NCCNCCc1ccc(Cl)cc1Cl", "read-out": "MIC", "value": "25 µM"}
{"smiles": "CCC1NC(=O)NC1=O", "read-out": "MIC", "strain or isolate": "H37Rv", "value": ">100 µg/mL"}
{"smiles": "CO[C@H]1/C=C/O[C@@]2(C)Oc3c(C)c(O)c4c(=O)c(c5oc6cc(N7CCN(C(C)C)CC7)cc(=O)c6nc5c4c3=C2O)NC(=O)/C(C)=C\\C=C\\[C@H](C)[C@H](O)[C@@H](C)[C@@H](O)[C@@H](C)[C@H](OC(C)=O)[C@@H]1C", "read-out": "MBC", "strain or isolate": "2275 (rifampin-resistant)", "value": "0.8 µg/mL"}
{"smiles": "C/C(=C\\C(=O)c1ccccc1)N1CCOCC1", "read-out": "MIC", "strain or isolate": "H37Rv", "value": ">100 µg/mL"}
{"smiles": "Cc1ccc(CNCCNC[C@]2(C)CCC[C@]3(C)c4ccc(C(C)C)cc4CC[C@@H]23)cc1", "read-out": "MIC", "value": "25 µM"}

3 of the rows above, restated:

smiles,tested at,cell line,read-out,strain or isolate,method,value
O=C(O)/C=C/c1ccc([N+](=O)[O-])o1,,,MIC,H37Rv,,>100 µg/mL
CC(C)(CO)NCCNCCN1CCOCC1,,,MIC,,,50 µM
c1ccc(C(CNCCNCCCN2CCOCC2)c2ccccc2)cc1,,,MIC,,,25 µM